A mixed list of measured activities; the numbers were collected in NIAID ChemDB.

Common to all: toxicity to cultured cells; measure: CC50

Conditions beyond the fields shown may differ between rows.

compound	cell line	read by	value
Cc1nc(N)c2[nH]c(=S)n(CC(CO)OCP(=O)(O)O)c2n1	HB611	-	>100 µM
Cc1cn([C@H]2C=C[C@@H](COP(=O)(O)O)O2)c(=O)[nH]c1=O	CEM/TK-	MTT	411 µM
COc1ccc(S(=O)(=O)N(CC(C)C)C[C@@H](O)[C@H](Cc2ccccc2)NC(=O)c2cc(O)cc(O)c2)cc1	HEK293T	absorbance	>100 µM
CN1CCc2cc3c(cc2C(=O)Cc2ccc4c(c2C1)OCO4)OCO3	KB cells	-	>3.5 µg/mL
CCCC[C@H](NC(=O)[C@@H](NC(=O)[C@H](Cc1cccc2ccccc12)CS(=O)(=O)C(C)(C)C)C(C)C)[C@@H](O)[C@H](O)[C@H](CCCC)NC(=O)[C@@H](NC(=O)[C@H](Cc1cccc2ccccc12)CS(=O)(=O)C(C)(C)C)C(C)C	PBLC	-	>0.075 µM
Nc1ncnc2c1ncn2[C@H]1[C@H](O)[C@H](O)[C@]2(CO)O[C@H]12	PRK	-	28 µg/mL
O=C(NC(=O)C1N=C(c2ccccc2)c2ccccc2NC1=O)c1ccno1	VERO	-	3 µM
O=C(O)/C=C/c1ccc(O)c(O)c1	HepG2.2.15	MTT	>4300 µM
CCC(Cl)C1(c2ccc(Cl)cc2)OC(=O)c2ccccc21	TZM-bl	MTT	250 µM
Nc1ncnc2c1ncn2C[C@@H](CO)OCP(=O)(O)O	HB611	-	77.4 µM
O=c1[nH]cnc2c1ncn2[C@@H]1C=C(CO)[C@@H](O)[C@H]1O	PRK	-	>50 µg/mL
CC(Cl)C1(c2ccc(F)cc2)OC(=O)c2ccccc21	TZM-bl	MTT	276 µM
CC(C)(C)S(=O)(=O)C[C@@H](Cc1cccc2ccccc12)C(=O)N[C@@H](CC(N)=O)C(=O)N[C@@H](Cc1ccccc1)[C@@H](O)[C@H](O)[C@H](Cc1ccccc1)NC(=O)[C@H](CC(N)=O)NC(=O)[C@H](Cc1cccc2ccccc12)CS(=O)(=O)C(C)(C)C	PBLC	-	>10 µM
COc1cc2c(cc1OC)CN(Cc1ccc(O)cc1)CC2	KB cells	-	>20 µg/mL
CCCCCCCCCCCCCC(=O)O[C@@H]1[C@@H](C)[C@@]2(O)[C@@H](C=C(CO)C[C@]3(O)C(=O)C(C)=C[C@@H]23)[C@@H]2C(C)(C)[C@]12OC(C)=O	HB611	-	>200 µM
COc1cccc(CNC2N=C(c3ccccc3)c3ccccc3NC2=O)c1	VERO	-	30 µM
O[C@H]1[C@H](O)[C@@H](O)CN2CC[C@H](O)[C@H]12	MDBK	XTT	>1000 µM
Cc1ccnc2c1NC(=O)c1cccnc1N2C1CC1	TZM-bl	MTT	5.6 µM
Nc1ncnc2c1ncn2[C@@H]1C=C(CO)[C@@H](O)[C@H]1O	PRK	-	100 µg/mL
COc1cc2ccc(=O)oc2cc1O	HepG2.2.15	MTT	1820 µM
CC(C)[C@H](NC(=O)N(C)Cc1ccccn1)C(=O)N[C@@H](Cc1ccccc1)[C@@H](O)[C@H](O)[C@H](Cc1ccccc1)NC(=O)[C@@H](NC(=O)N(C)Cc1ccccn1)C(C)C	PBLC	-	>0.958 µM
COc1cc(C=O)cc(OC)c1O	HepG2.2.15	MTT	1500 µM
O=C(NC1N=C(c2cccc(Cl)c2)c2ccccc2NC1=O)c1ccccc1[N+](=O)[O-]	HEP-2	-	2.5 µM
NC(=O)c1ncn([C@@H]2O[C@H](CO)[C@@H](O)[C@H]2O)n1	PRK	-	>5 µg/mL
CCOP(=O)(COCCn1cnc2c(=O)[nH]c(N)nc21)OCC	HB611	-	15.6 µM
COc1cc(C2Oc3cc(O)cc(O)c3C(=O)C2OC2O[C@H](CO)[C@@H](O)[C@H](O)[C@H]2O)ccc1O	HepG2.2.15	MTT	>2580 µM
CCCCN1C[C@H](O)[C@@H](O)[C@H](O)[C@H]1CO	MDBK	-	>300 µM
O=Cc1cc(O)c(O)c(O)c1	HepG2.2.15	MTT	1390 µM
CCC(Cl)C1(c2ccc(Br)cc2)OC(=O)c2ccccc21	TZM-bl	MTT	220 µM
Cc1cc(C(=O)NC2N=C(c3ccccc3)c3ccccc3NC2=O)oc1C	HEP-2	-	0.3 µM
CCC(Cl)C1(c2ccc(F)cc2)OC(=O)c2ccccc21	TZM-bl	MTT	376 µM
CN1CCc2cc3c(cc2[C@H]1[C@H]1OC(=O)c2c1ccc1c2OCO1)OCO3	KB cells	-	>10 µg/mL
O=c1[nH]cnc2c1ncn2[C@H]1CC[C@@H](CO)O1	CFU-GM	-	>100 µM
CC(C)[C@H](NC(=O)OCc1cccnc1)C(=O)N[C@@H](Cc1ccccc1)[C@@H](O)[C@H](O)[C@H](Cc1ccccc1)NC(=O)[C@@H](NC(=O)OCc1cccnc1)C(C)C	PBLC	-	>0.253 µM
Nc1ccn([C@H]2CC[C@@H](CO)O2)c(=O)n1	CFU-GM	-	10 µM
CCOCn1c(Cc2ccccc2)c(C(C)C)c(=O)[nH]c1=O	MM	-	>100 µM
Nc1ncnc2c1ncn2[C@H]1CC[C@@H](CO)O1	CFU-GM	-	100 µM
O=C1OC(c2ccc(F)cc2)(C(Cl)c2ccccc2)c2ccccc21	TZM-bl	MTT	227 µM
CCOC(=O)/C=C/c1ccc(O)cc1	HepG2.2.15	MTT	3260 µM

For reference, 5 entries again:

compound | cell line | read by | value
CN1CCc2cc3c(cc2[C@H]1[C@H]1OC(=O)c2c1ccc1c2OCO1)OCO3 | KB cells | - | >10 µg/mL
CCC(Cl)C1(c2ccc(F)cc2)OC(=O)c2ccccc21 | TZM-bl | MTT | 376 µM
Cc1ccnc2c1NC(=O)c1cccnc1N2C1CC1 | TZM-bl | MTT | 5.6 µM
COc1cc2ccc(=O)oc2cc1O | HepG2.2.15 | MTT | 1820 µM
O=Cc1cc(O)c(O)c(O)c1 | HepG2.2.15 | MTT | 1390 µM

CCn is the concentration with n% toxicity to the cells. An empty or dashed field is not shown.